Results of unrelated studies side by side (data: NIAID ChemDB).

Shared fields: target-level tests; organism: HIV; protein: Reverse transcriptase; endpoint: fold resistance

Lines come from different laboratories, so protocols vary. Blank or dashed fields: not listed here. Fold resistance has wild type as its base.

{"compound": "Cc1cn([C@@H]2O[C@H](CO[Si](C)(C)C(C)(C)C)C3(OS(=O)(=O)C=C3N)[C@H]2O[Si](C)(C)C(C)(C)C)c(=O)n(C)c1=O", "mutations": "RT-Y181C", "method": "nucleotide incorporation", "result": ">183"}
{"compound": "CC(C)Nc1cccnc1N1CCN(C(=O)c2cc3cc4c(cc3[nH]2)OCO4)CC1", "mutations": "RT-Y181C P236L", "result": "89.3"}
{"compound": "CCc1c(Sc2ccccc2)n(COCc2ccccc2)c(=O)[nH]c1=O", "mutations": "RT-V90A", "method": "RT activity", "result": "0.5"}
{"compound": "c1ccc(C2SCc3nc4ccccc4n32)cc1", "mutations": "RT-K103N Y181I Y188L", "result": ">2"}
{"compound": "Cc1cn([C@@H]2O[C@H](CO[Si](C)(C)C(C)(C)C)C3(OS(=O)(=O)C=C3N)[C@H]2O[Si](C)(C)C(C)(C)C)c(=O)n(C)c1=O", "mutations": "RT-E138K(P51 ONLY)", "result": "38.5"}
{"compound": "CC[C@H]1C(=O)Nc2ccc(F)cc2N1C(=O)OC(C)C", "mutations": "RT-P95A", "method": "nucleotide incorporation / radiometric", "result": "1.1"}
{"compound": "CCOc1ccccc1N1CCN(C(=O)c2cc3ccccc3[nH]2)CC1", "mutations": "RT-Y181C P236L", "result": "6.1"}
{"compound": "CC(=O)c1ccc(C)cc1NC(C(N)=O)c1c(Cl)cccc1Cl", "mutations": "RT-V106A P225H", "method": "RT activity", "result": "16"}
{"compound": "CCOc1ccccc1N1CCN(C(=O)c2cc3cc4c(cc3[nH]2)OCO4)CC1", "mutations": "RT-Y181C P236L", "result": "8.93"}
{"compound": "Cc1cn([C@@H]2O[C@H](CO[Si](C)(C)C(C)(C)C)[C@@]3(OS(=O)(=O)C=C3N)[C@H]2O[Si](C)(C)C(C)(C)C)c(=O)[nH]c1=O", "mutations": "RT-E138K", "method": "nucleotide incorporation", "result": ">150"}
{"compound": "CC(C)=CCN1Cc2cccc3[nH]c(=S)n(c23)C[C@@H]1C", "mutations": "RT-E138K(P51 ONLY)", "result": "2.17"}
{"compound": "Nc1ncnc2c1ncn2[C@H]1CC[C@@H](COP(=O)(O)OP(=O)(O)OP(=O)(O)O)O1", "mutations": "RT-K65R", "result": "4.82"}
{"compound": "COc1ccc2c(c1)N(C(=O)OC(C)C)[C@@H](CSC)C(=S)N2", "mutations": "RT-D67N K70R T215F K219Q L100I", "method": "RT activity", "result": "2.17"}
{"compound": "Nc1nc2c(ncn2[C@H]2CC[C@@H](COP(=O)(O)OP(=O)(O)OP(=O)(O)O)O2)c(=O)[nH]1", "mutations": "RT-N137S", "method": "nucleotide incorporation / radiometric", "result": "7.8"}
{"compound": "CC(C)Nc1cccnc1N1CCN(C(=O)c2cc3ccccc3[nH]2)CC1", "mutations": "RT-G190E", "method": "nucleotide incorporation", "result": "314"}
{"compound": "CC(C)=CCN1Cc2cccc3[nH]c(=S)n(c23)C[C@@H]1C", "mutations": "RT-V90A", "method": "RT activity", "result": "1.5"}
{"compound": "Cc1cn([C@@H]2O[C@H](CO[Si](C)(C)C(C)(C)C)C3(OS(=O)(=O)C=C3N)[C@H]2O[Si](C)(C)C(C)(C)C)c(=O)n(C)c1=O", "mutations": "RT-V106A P225H", "method": "RT activity", "result": ">276"}
{"compound": "CC(C)=CCOc1cc(NC(=S)c2ccoc2C)ccc1Cl", "mutations": "RT-N137E", "method": "nucleotide incorporation / radiometric", "result": "0.29"}
{"compound": "CC(C)=CCN1Cc2cccc3[nH]c(=S)n(c23)C[C@@H]1C", "mutations": "RT-E138K", "method": "nucleotide incorporation", "result": "4.4"}
{"compound": "Nc1ccn([C@H]2CC[C@@H](COP(=O)(O)OP(=O)(O)OP(=O)(O)O)O2)c(=O)n1", "mutations": "RT-K65R S68G", "result": "2.25"}
{"compound": "CCc1c([Se]c2ccccn2)n(COCc2ccccc2)c(=O)[nH]c1=O", "mutations": "RT-V90A", "method": "RT activity", "result": "1"}

Again, the opening 2 rows:

| compound | mutations | method | result |
|---|---|---|---|
| Cc1cn([C@@H]2O[C@H](CO[Si](C)(C)C(C)(C)C)C3(OS(=O)(=O)C=C3N)[C@H]2O[Si](C)(C)C(C)(C)C)c(=O)n(C)c1=O | RT-Y181C | nucleotide incorporation | >183 |
| CC(C)Nc1cccnc1N1CCN(C(=O)c2cc3cc4c(cc3[nH]2)OCO4)CC1 | RT-Y181C P236L |  | 89.3 |